Reference: patent US20050048462A1, “Markers and screens” (priority 2001, published 2005)

Tested on: profilin II-GFP transfected hippocampal neurons

botulinum toxin A
Numbers of cells − (no targeting): 6
